Measured values published in the supplement of paper PMC9931576.
Human monoclonal antibodies against the spike receptor-binding domain (heavy:light variable regions). IC50 against pseudoviruses bearing the spike of naturally observed variants; lower = stronger; >10 µg/ml means not reached at the top dose. No active / inactive call. The stated detection limit is 0.0005 µg/ml; values near or below 0.001 µg/ml lie at the floor of the assay.

B1: BD56-266 (protein)
chain 1: QVQLVQSGAEVKKPGASVKVSCKVSGYTLTELSMHWVRQVPGKGLEWMGGFDPVDGEAIYAQTFQGRVTMTEDTSTDTAYMELSSLRSEDTAVYYCATAWVAPFDYWGQGTLVTVSS
chain 2: EIVMTQSPATLSVSPGERATLSCRASQSISSNLAWYQQKPGQAPRLLIYGASTRATGIPARFSGSGSGTEFTLTISSLQSEDFAVYYCQQYDNWPWTFGQGTKVEIK
B2: BD56-776 (protein)
chain 1: EVQLVESGGGLVQPGGSLRLSCAASGFTVTSNYMNWVRQAPGKGLEWVSIIYSGGRTNYADSVKGRFTISRDNSENTLYLQMNSLRDEDTAVYYCARLDWHTGFDPWGQGTLVTVSS
chain 2: SSVLTQPPSVSVAPGQAARITCGGNNIGSDSVHWYQQKPGQAPVLVVYDDTDRPSGIPERFSGSKSGNTATLTISRVEAGDEADYYCQVWDSSSDHPVVFGGGTKLTVL
B3: BD57-0382 (protein)
chain 1: EVQLVQSGADVKKPGESLRISCKGSGYTFTNYWIAWVRLMPGKGLEWMGIIYPDDSNTKYSPSFQGQVTVSVDKSISTAYLQWSSLKASDTAMYYCARYYDILTGSYRGGHVFDYWGQGTLVTVSS
chain 2: HSALTQPRTVSGSLGQSVTISCTGTSSNVGFNNHVSWYQLRPGKVPKVLIYEVYERPSGVPVRFSGSKSGNTASLTISALQAEDEADYYCCSYAGNYMWVFGGGTELTVV
B4: BD56-336 (protein)
chain 1: QVQLQESGPGLVKPSETLSLTCTVSGDSISSYYWSWIRQPPGKGLEWIGYIYYSGSTNYKPSLKSRVTMSVDRSKNQFSLKLSSVTAADTAVYYCARGGDYGDFFDYWGQGILVTVSS
chain 2: DIVMTQSPDSLAVSLGERATINCKSSQSVLYSSNNENYLAWYQQKPGQPPMLLIYWASTRESGVPDRFSGSGSGTDFTLTISSLQAEDVAVYYCQQYYSTPLTFGGGTKVEIK
B5: BD56-816 (protein)
chain 1: QVQLLESGPGLVKPSQTLSLTCTVSGGSISSGAYYWNWIRQLPGKGLEWIGYIYDSGSTYYNPSLKSRVTISVDTSKNQFSLKLSSVTAADTAVYYCARDKVAGLDYGDLYAFDIWGQGTMVTVSS
chain 2: DIVMTQSPDSLAVSLGERATINCKSSQSVLYSSDNKNYLAWYQQKPGQPPKLLIYWASTRESGVPDRFSGSGSGTDFTLTISSLQAEDVAVYYCQQYYNIPRTFGQGTKLEIK
B6: BD56-310 (protein)
chain 1: QMELVQSGPEVKKPGTSVKVSCKASGFTFTSSAVQWVRQARGQRLEWIGWIVVGSGNTNYAQKFQERVTITRDMSTSTAYMELSSLRSEDTAVYYCAAGGYYDSSGYSQDYYYGMDVWGQGTTVTVSS
chain 2: DIQMTQSPSSLSASVGDRVTITCQASQDISNYLNWYQQKPGKAPKLLIYDVSSLETGVPSRFTGSGSGTDFTFTISSLQPEDIATYYCQQYDNLSLTFGGGTKVEIK
B7: BD56-822 (protein)
chain 1: EVQLVQSGAEVKKPGESLKISCKGSGYSFTSYWIAWVRQMPGKGLEWMGIIYPGDSDTRYSPSFQGQVTISADKSISTAYLQWSSLKASDTAMYYCARGDSSGYYDYWGQGTLLTVSS
chain 2: DIQMTQSPSSLSASVGDRVTITCQASQDISNYLNWYQQKPGKAPKLLIYDASNLETGVPSRFSGSGSGTDFTFTISSLQPEDIATYYCQQYDNLLLTFGGGTKVEIK
B8: BD56-813 (protein)
chain 1: EVQLVESGGGLVQPGRSLRLSCTTSGFTFGDFAMSWFRLAPGKGLEWVGFIRRKAYGGTTDYAASVKGRFTISRDDSKSIAYLQMNSLKTEDTAVYYCARVGICSGGSCDQFYYYGMDVWGQGSTVTVSS
chain 2: DIQMTQSPSSLSASVGDRVTITCQASQDSSNYLDWYQQKPGKAPKRLIYDASNLETGVPSRFSGSGSGTDFTFTISSLQPEDIATYYCQQYHDLPITFGQGTRLEIK
B9: BD56-812 (protein)
chain 1: QVTLRESGPALVKPTQTLTLTCTFSGFSLSTSGMCVTWIRQPPGKALEWLALIDWDDDKYYSTSLKTRLTISKDTSKNQVVLTMTNMDPVDTATYYCARIVGDFYYYGMDVWGQGTTVTVSS
chain 2: SYELTQPPSVSVSPGQTARITCSGDSLPNQFAYWYQQKPGQAPVLVIYKDSERPSEIPERFSGSSSGTTVTLTISGVQAEDEADYYCQSTDSNRTPVIFGGGTTLTVL
B10: BD57-0276 (protein)
chain 1: QVLLQESGPGLVRPSETLSLTCTVSGGSITNYYWNWIRQAPGQPPEWIGNVYHTGGTDYNPSLKSRVTITLDTSETQFSLRLSSVTAADTAVYYCARLGELTGDGYFDFWGHGALVTVSS
chain 2: DIQMTQSPSSLSASVGDRVSITCRASRYIGLYLNWYQQKPGKAPKLLISAASTLSSGVPSRFSGSGSGTDFTLTISSLQPEDFATYYCQQSYSTTPYTFGQGTNLEIK

Each binder was assayed against SARS-CoV-2 Omicron BA.1 spike pseudovirus (assay: pseudovirus neutralization IC50; higher = weaker neutralization).
Procedure: (§1)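 Single-round VSV luciferase pseudovirus mixed with antibody dilutions for 1 h and put on Huh-7 cells for about a day; IC50 from the dose curve.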

Binder	pseudovirus neutralization IC50 [µg/mL]
B1	0.00335
B2	0.0233
B3	> 10
B4	0.000802
B5	0.00299
B6	3.84
B7	0.0317
B8	0.00141
B9	0.00329
B10	> 10

Each binder was assayed against SARS-CoV-2 Omicron BA.2 spike pseudovirus in the same assay as above.
Procedure: as §1

Binder	pseudovirus neutralization IC50 [µg/mL]
B1	0.0347
B2	0.0302
B3	> 10
B4	> 10
B5	> 10
B6	> 10
B7	0.0913
B8	0.0026
B9	0.144
B10	> 10

The binders below were run against SARS-CoV-2 Omicron BA.2.75 spike pseudovirus in the same assay as above.
Procedure: as §1

Binder	pseudovirus neutralization IC50 [µg/mL]
B1	> 10
B2	> 10
B3	> 10
B4	> 10
B5	> 10
B6	> 10
B7	0.0727
B8	0.219
B9	0.137
B10	> 10

These binders were tested against SARS-CoV-2 Omicron BA.2.75.2 spike pseudovirus in the same assay as above.
Procedure: as §1

Binder	pseudovirus neutralization IC50 [µg/mL]
B1	> 10
B2	> 10
B3	> 10
B4	> 10
B5	> 10
B6	> 10
B7	0.458
B8	0.61
B9	0.184
B10	> 10

These binders were tested against SARS-CoV-2 Omicron BA.5 spike pseudovirus in the same assay as above.
Procedure: as §1

Binder	pseudovirus neutralization IC50 [µg/mL]
B1	> 10
B2	> 10
B3	> 10
B4	> 10
B5	> 10
B6	> 10
B7	0.0903
B8	0.377
B9	0.121
B10	> 10

The binders below were run against SARS-CoV-2 Omicron BM.1.1.1 spike pseudovirus in the same assay as above.
Procedure: as §1

Binder	pseudovirus neutralization IC50 [µg/mL]
B1	> 10
B2	> 10
B3	> 10
B4	> 10
B5	> 10
B6	> 10
B7	0.522
B8	> 10
B9	0.137
B10	> 10

What follows are binders tested against SARS-CoV-2 Omicron BQ.1.1 spike pseudovirus in the same assay as above.
Procedure: as §1

Binder	pseudovirus neutralization IC50 [µg/mL]
B1	> 10
B2	> 10
B3	> 10
B4	> 10
B5	> 10
B6	> 10
B7	> 10
B8	> 10
B9	7.19
B10	> 10

What follows are binders tested against SARS-CoV-2 Omicron BR.2 spike pseudovirus in the same assay as above.
Procedure: as §1

Binder	pseudovirus neutralization IC50 [µg/mL]
B1	> 10
B2	> 10
B3	> 10
B4	> 10
B5	> 10
B6	> 10
B7	0.338
B8	> 10
B9	0.163
B10	> 10

The binders below were run against SARS-CoV-2 Omicron CA.1 spike pseudovirus in the same assay as above.
Procedure: as §1

Binder	pseudovirus neutralization IC50 [µg/mL]
B1	> 10
B2	> 10
B3	> 10
B4	> 10
B5	> 10
B6	> 10
B7	0.418
B8	> 10
B9	0.138
B10	> 10

Each binder was assayed against SARS-CoV-2 Omicron XBB spike pseudovirus in the same assay as above.
Procedure: as §1

Binder	pseudovirus neutralization IC50 [µg/mL]
B1	> 10
B2	> 10
B3	> 10
B4	> 10
B5	> 10
B6	> 10
B7	> 10
B8	> 10
B9	> 10
B10	> 10

These binders were tested against SARS-CoV-2 early D614G spike pseudovirus in the same assay as above.
Procedure: as §1

Binder	pseudovirus neutralization IC50 [µg/mL]
B1	> 10
B2	> 10
B3	> 10
B4	> 10
B5	> 10
B6	> 10
B7	> 10
B8	> 10
B9	> 10
B10	> 10
